The values that follow come from patent US20080058275, “Rna Interferases And Methods Of Use Thereof” (published 2008).

For this data set, the target named is (His)6MazE(L55A/L58A) (Escherichia coli) (UniProt P0AE72). The experiment in a line: EMSA. To be noted: 4 uM; no supershift with MazF; purified recombinant protein; protein details: N-terminal His6; label: 32P. For orientation: In EMSA bound probe runs differently from free probe, usually more slowly.

The exact form of at least one protein or probe is not confirmed.

In the case of “GCTCGTATCTACAATGTAGATTGATATATACTGTATCTACATATGATAGC (double strand) [mazEF promoter 50-bp]”, the binding result is “binds”.
